Source: paper PMC8509827, “An ArsR Transcriptional Regulator Facilitates Brucella sp. Survival via Regulating Self and Outer Membrane Protein” (2021)

Biological target: His-tagged ArsR6 (Brucella suis S2)

With His-tagged ArsR6 (natural protein) the stoichiometry N was 2.
